{
  "sequences": {"note": "Amino acid sequences for entries named in this document (tags omitted). Residues count along the entry.", "UniProt Q962Y6, 1-598": "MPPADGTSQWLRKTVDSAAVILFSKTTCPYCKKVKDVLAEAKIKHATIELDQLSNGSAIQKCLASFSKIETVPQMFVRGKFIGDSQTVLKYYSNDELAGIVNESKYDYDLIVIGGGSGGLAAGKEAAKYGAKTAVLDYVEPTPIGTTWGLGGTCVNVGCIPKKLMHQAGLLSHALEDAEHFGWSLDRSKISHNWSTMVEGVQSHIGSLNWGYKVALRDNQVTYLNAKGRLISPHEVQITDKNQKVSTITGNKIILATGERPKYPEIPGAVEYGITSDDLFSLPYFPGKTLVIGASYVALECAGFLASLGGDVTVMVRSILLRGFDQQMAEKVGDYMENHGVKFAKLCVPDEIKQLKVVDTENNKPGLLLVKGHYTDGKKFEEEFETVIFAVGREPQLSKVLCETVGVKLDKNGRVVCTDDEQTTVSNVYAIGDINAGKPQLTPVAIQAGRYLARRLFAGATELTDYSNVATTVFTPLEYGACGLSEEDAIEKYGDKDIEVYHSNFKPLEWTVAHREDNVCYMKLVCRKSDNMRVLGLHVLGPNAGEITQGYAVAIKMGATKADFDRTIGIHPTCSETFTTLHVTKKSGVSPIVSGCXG"},
  "source": "ChEMBL document CHEMBL4811216",
  "about": "“Chemotherapy for human schistosomiasis: how far have we come? What's new? Where do we go from here?” (RSC Med Chem, 2020)",
  "biological_target": "Thioredoxin glutathione reductase (Schistosoma mansoni, UniProt Q962Y6)",
  "assay": "Inhibition of Schistosoma mansoni thioredoxin glutathione reductase incubated for 50 mins by thio-glo reagent based fluorescence method",
  "data": [
    {"smiles": "CCNc1sc(Br)c([N+](=O)[O-])c1[N+](=O)[O-]", "values": [
      {"measurement": "IC50", "value": 3.15, "unit": "µM"}
    ]}
  ]
}
